Reference: PubChem BioAssay AID1259414 (Drosophila RNAi Screening Center, 2018)

- Purpose: 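Genome-wide screen for host control of endosymbiont load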 (primary screen)
- System: Drosophila JW18 cells infected with Wolbachia
- Knock-down reagent: long dsRNA against Drosophila genes, 0.25 µg dsRNA per well of a 384-well plate
- Timing: 5 days
- Treatment: cells persistently infected with Wolbachia before knock-down; no added drug
- Measurement: 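Automated imaging of bacterial rRNA staining divided by host cell count, reported as plate-normalised robust z-score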
- Reading the numbers: Wolbachia per cell robust z: higher = more Wolbachia per host cell than the plate typical
- Active means: 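Active if absolute robust z reaches 1.5 in two or more of three replicates, leaving out multi- or no-target dsRNAs, genes unexpressed in JW18 and A1 wells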
In all, the deposit lists about 24,000 reagents; this is a random part of those that have a named target and a result. In the full data, about 1,210 (5%) are marked active. 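Inactive calls also include excluded dsRNAs with several or no targets, genes unexpressed in JW18, and well A1, regardless of score.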 The numbers tell different reagents against one gene apart. Names joined by + are all predicted targets of the reagent. Reagent sequences are not shown.

Knock-down of kipf #1 came out at: Wolbachia per cell robust z, rep 1 = -0.0756; Wolbachia per cell robust z, rep 2 = 0.654; Wolbachia per cell robust z, rep 3 = 0.413; inactive.
kipf #2 gave Wolbachia per cell robust z, rep 1 = 0.641; Wolbachia per cell robust z, rep 2 = -0.359; Wolbachia per cell robust z, rep 3 = -1.19; inactive.
Silencing of kipf #3 gave: Wolbachia per cell robust z, rep 1 = -0.135; Wolbachia per cell robust z, rep 2 = 0.441; Wolbachia per cell robust z, rep 3 = 0.207; inactive.
After knock-down of MAGE, the screen gave Wolbachia per cell robust z, rep 1 = 0.387; Wolbachia per cell robust z, rep 2 = 0.0415; Wolbachia per cell robust z, rep 3 = -0.00808; inactive.
After knock-down of CG10750 #1 the results were Wolbachia per cell robust z, rep 1 = -2.77; Wolbachia per cell robust z, rep 2 = 0.0708; Wolbachia per cell robust z, rep 3 = -1.43; inactive.
With knock-down of CG10750 #2, the screen gave Wolbachia per cell robust z, rep 1 = -0.22; Wolbachia per cell robust z, rep 2 = -6.03; Wolbachia per cell robust z, rep 3 = 0.475; inactive.
wuc #1 showed Wolbachia per cell robust z, rep 1 = 0.822; Wolbachia per cell robust z, rep 2 = 0.576; Wolbachia per cell robust z, rep 3 = 1.22; inactive.
Against wuc #2, the values are Wolbachia per cell robust z, rep 1 = 0.169; Wolbachia per cell robust z, rep 2 = 1.08; Wolbachia per cell robust z, rep 3 = 1.14; inactive.
For Pu #1, the entry reads Wolbachia per cell robust z, rep 1 = 0.812; Wolbachia per cell robust z, rep 2 = -0.0832; Wolbachia per cell robust z, rep 3 = -1.39; inactive.
Depletion of Pu #2 came out at: Wolbachia per cell robust z, rep 1 = -0.854; Wolbachia per cell robust z, rep 2 = -0.533; Wolbachia per cell robust z, rep 3 = -0.782; inactive.
After knock-down of CG1103 + Skp2 #1 the results were Wolbachia per cell robust z, rep 1 = -2.21; Wolbachia per cell robust z, rep 2 = 0.32; Wolbachia per cell robust z, rep 3 = 1.18; inactive.
For CG1103 + Skp2 #2 the deposit lists Wolbachia per cell robust z, rep 1 = -0.533; Wolbachia per cell robust z, rep 2 = -0.331; Wolbachia per cell robust z, rep 3 = -0.419; inactive.

Quoted from above, 2 entries:
Pu #1 | Wolbachia per cell robust z, rep 1: 0.812; Wolbachia per cell robust z, rep 2: -0.0832; Wolbachia per cell robust z, rep 3: -1.39; activity call: inactive
Pu #2 | Wolbachia per cell robust z, rep 1: -0.854; Wolbachia per cell robust z, rep 2: -0.533; Wolbachia per cell robust z, rep 3: -0.782; activity call: inactive
